{
  "source": "paper PMC9653429",
  "biological_target": "spike protein of SARS-CoV (NCBI:txid229992) (SARS-CoV) (UniProt P59594)",
  "data": [
    {"substance": "ACE2-IgM-Fc hexamer (from UniProt Q9BYF1-1;P01871) (Fc fusion)", "values": [
      {"measurement": "IC50 of neutralisation of infectious SARS-CoV on Vero E6 cells", "result": 0.68, "unit": "nM"}
    ]},
    {"substance": "ACE2-IgM-Fc monomer (from UniProt Q9BYF1-1;P01871) (Fc fusion)", "values": [
      {"measurement": "IC50 of neutralisation of infectious SARS-CoV on Vero E6 cells", "result": 65.2, "unit": "nM"}
    ]}
  ]
}
